Laboratory results as given in PMC3364000 (Vaccine, 2009).

Legend:
Test in all cases: biochemical
Assay type in all cases: binding
HLA-DRB4*0101 = HLA-DRB4*0101 (Homo sapiens, UniProt P01903+P13762, G164S)
HLA-DRB1*0301 = HLA-DRB1*0301 (Homo sapiens, UniProt P01903+P01911, A100K/A102G/A103R/A169T/F55Y/I96L/K41T/L162R/M171V/P40S/Q125H/Q178H/Q39Y/R42S/S66N/T106N/T262R/W38E/Y61H)
HLA-DRB1*0701 = HLA-DRB1*0701 (Homo sapiens, UniProt P01903+P01911, A100R/A102G/A103Q/D57E/D86V/E43K/F76Y/K127E/L162R/M171V/P40G/Q125H/Q99D/R33Q/R42Y/R54Q/S133A/S66F/T210M/V115G/Y107V/Y59L/Y89S)

SMILES | IC50 (HLA-DRB4*0101) | IC50 (HLA-DRB1*0301) | IC50 (HLA-DRB1*0701)
CC[C@H](C)[C@H](NC(=O)CNC(=O)[C@@H](N)CCCCN)C(=O)N[C@@H](CC(C)C)C(=O)NCC(=O)N[C@@H](Cc1ccccc1)C(=O)N[C@H](C(=O)N[C@@H](Cc1ccccc1)C(=O)N[C@H](C(=O)N[C@@H](CC(C)C)C(=O)N[C@H](C(=O)N[C@H](C(=O)N1CCC[C@H]1C(=O)N[C@@H](CO)C(=O)N[C@@H](CCC(=O)O)C(=O)O)C(C)C)[C@@H](C)O)[C@@H](C)O)C(C)C [M1.57] | 356 nM | – | –
CC[C@H](C)[C@H](NC(=O)[C@H](CC(N)=O)NC(=O)[C@H](Cc1ccc(O)cc1)NC(=O)[C@H](CC(C)C)NC(=O)[C@H](CC(N)=O)NC(=O)[C@@H]1CCCN1)C(=O)N[C@@H](CCCNC(=N)N)C(=O)N[C@@H](CC(N)=O)C(=O)N[C@@H](CC(C)C)C(=O)N[C@@H](Cc1c[nH]cn1)C(=O)N[C@H](C(=O)N1CCC[C@H]1C(=O)N[C@@H](CCC(=O)O)C(=O)N[C@H](C(=O)N[C@@H](CS)C(=O)O)C(C)C)[C@@H](C)CC [PB1.596] | – | > 10000 nM | 10 nM
